Laboratory results published in PMC5557811 (Scientific Reports, 2017).

Experiments:
[1] = test system: Fusarium graminearum; details: transgenic barley plants against F. graminearum; cited from earlier work
[2] = test system: iron-sulfur subunit (SdhB) of succinate–coenzyme Q reductase (SQR); test: Yeast two-hybrid assay, F. graminearum cDNA library; details: pGBKT7::Mtk bait; selection on DDO/X/A, then QDO/X/A
[3] = test system: SdhB; test: Fluorescent two-hybrid (F2H) assay in BHK-21 cells; details: 24 h after co-transfection

**Q.** Which “resistance of transgenic barley plants expressing Mtk” value [1] does the source give for metchnikowin here?
**A.** resistance

**Q.** What about the “interaction with SdhB in yeast two-hybrid screen” value [2] of the same substance?
**A.** a specific interaction

**Q.** What about the “number of cells supporting the interaction” value [3] of the same substance?
**A.** low

**Q.** And the “co-localization of Mtk-GFP and SdhB-RFP spots in nucleus” value ([3]; fluorescence microscopy)?
**A.** co-localization
